Results of unrelated studies side by side (data: NIAID ChemDB).

Shared fields: growth or infection tests; organism: HIV-1; endpoint: EC50

Neighbouring rows are from separate reports. ECn is the concentration giving n% inhibition of infection, replication or growth. Blank or dashed fields: not listed here.

structure | setting | cells | strain or isolate | mutations | value
Nc1ncc(CC2(CO)CCC2)c(=O)[nH]1 |  | MT-4 |  |  | >100 µM
CC(C)CN(C[C@@H](O)[C@H](Cc1ccccc1)NC(=O)O[C@H]1CCOC1)S(=O)(=O)c1ccc(N)cc1 |  | MT-4 | HXB2 | PR-M46I I47V I50V | 2.135 µM
Cc1cccc(NC(=O)c2cccc(CN3C(=O)N(Cc4ccc5[nH]ncc5c4)[C@H](Cc4ccccc4)[C@H](O)[C@@H](O)[C@H]3Cc3ccccc3)c2)n1 |  | MT-2 | RF |  | <0.003 µM
Cc1cn([C@H]2C=C[C@@H](COP(=O)(O)O)O2)c(=O)[nH]c1=O |  | MT-4 |  |  | 0.71 µM
CCOC(=O)C(O)(c1c(C)[nH]c2ccccc12)C(F)(F)F |  | TZM-bl | IIIB |  | 16.3 µM
CCNCC(O)c1cccc(O)c1 |  | MT-4 | LAV |  | >100 µg/mL
CCOC(=O)C(O)(c1c[nH]c2ccc(C=O)cc12)C(F)(F)F |  | TZM-bl | IIIB |  | 4.487 µM
CN1CCCC(CC2c3ccccc3Sc3ccccc32)C1 |  | MT-4 | LAV |  | >100 µg/mL
Cc1cn([C@H]2C[C@H](N=[N+]=[N-])[C@@H](CO)O2)c(=O)[nH]c1=O |  | MT-4 | IIIB |  | 0.03 µM
O=C1CN=C(c2ccc[nH]2)c2cc(Cl)ccc2N1 |  | HeLa (TAT) + HeLa |  |  | ~1 µM
CC(C)=CCN1c2cc(Cl)cc3[nH]c(=S)n(c23)C[C@@H]1C |  | MT-4 |  | RT-D67N K70R T215Y K219Q A98G | <0.2 µM
COc1ccc2cc([C@H](C)C(=O)O)ccc2c1 |  | MT-4 | LAV |  | >100 µg/mL
c1cc(CN2CCCNCCNCCCNCC2)ccc1CN1CCCNCCNCCCNCC1 | pseudotyped |  | LAI |  | >0.00625 µM
Cc1cc(C#N)cc(C)c1Oc1nc(Nc2ccc(C#N)cc2)nc(N)c1Br |  | TZM-bl | LAI | E138K | 0.0028 µM
C/C(=N/O)c1cccc(CN2C(=O)N(Cc3cccc(/C(C)=N\O)c3)[C@H]3CS[C@@H](CCCCC(=O)OCc4cccc(/C(C)=N/O)c4)[C@H]32)c1 |  | MT-2 | RF |  | <67 µM
Cc1cn([C@H]2C=C[C@@H](COP(=O)(O)OCc3ccccc3)O2)c(=O)[nH]c1=O |  | CEM + CEM TK- |  |  | 0.3 µM
N[C@@H](CCC(=O)N[C@@H](CS)C(=O)NCC(=O)O)C(=O)O |  | MT-4 | LAV |  | >100 µg/mL
Cc1cc(S(=O)(=O)Nc2n[nH]c(N)n2)c(S)cc1Cl |  | CEM |  |  | 26 µM
Nc1ccc(CN2C(=O)N(Cc3ccc4[nH]ncc4c3)[C@H](Cc3ccccc3)[C@H](O)[C@@H](O)[C@H]2Cc2ccccc2)cc1-n1nccn1 |  | MT-2 | RF |  | <0.012 µM
CC(C)(C)C(=O)SCCOP(=O)(COCCn1cnc2c(N)ncnc21)OCCSC(=O)C(C)(C)C |  | MT-4 |  |  | 0.67 µM
Nc1nc(=O)n([C@@H]2CS[C@H](CO)O2)cc1F |  | TZM-bl | LAI | E138A | 6 µM
Nc1cccc(CN2C(=O)N(Cc3ccc4[nH]ncc4c3)[C@H](Cc3ccccc3)[C@H](O)[C@@H](O)[C@H]2Cc2ccccc2)c1 |  | MT-2 | RF WT |  | <0.011 µM
CC(C)(C)C(=O)SCCOP(=O)(OCCSC(=O)C(C)(C)C)OCC1(Cc2cnc(N)[nH]c2=O)CCC1 |  | MT-4 |  |  | 61.3 µM
O=S(=O)(O)c1cc(S(=O)(=O)O)c2c(Nc3ccnc4cc(Cl)ccc34)ccc(S(=O)(=O)O)c2c1 |  |  |  |  | 1000 µg/mL
CC(C)CN(C[C@@H](O)[C@H](Cc1ccccc1)NC(=O)O[C@H]1CCOC1)S(=O)(=O)c1ccc(N)cc1 |  | PBMC | ERS104pre |  | 0.028 µM
CN1CCC[C@@H]1CCO[C@](C)(c1ccccc1)c1ccc(Cl)cc1 |  | MT-4 | LAV |  | >1 µg/mL
O=C(O)CCCC[C@@H]1SC[C@H]2[C@@H]1N(Cc1cccc(Br)c1)C(=O)N2Cc1cccc(Br)c1 |  | MT-2 | RF |  | <34 µM
COc1c(O)c(Br)c2c(c1OC)-c1c(c(Br)c(O)c(OC)c1OC)C[C@H](C)[C@H](C)C2 |  | MT-4 | IIIB |  | 0.81 µM
COC(=O)CCCC[C@@H]1SC[C@H]2[C@@H]1N(Cc1cccc(Br)c1)C(=O)N2Cc1cccc(Br)c1 |  | MT-2 | RF |  | <44 µM
C=CCN1C(=O)N(CC=C)[C@H](Cc2ccccc2)[C@H](O)[C@@H](O)[C@H]1Cc1ccccc1 |  | MT-2 | RF |  | <4.7 µM
CCN1CCCC(OC(=O)C(c2ccccc2)c2ccccc2)C1 |  | MT-4 | LAV |  | >100 µg/mL
Cc1ccc(CN2C(=O)N(Cc3ccc4[nH]ncc4c3)[C@H](Cc3ccccc3)[C@H](O)[C@@H](O)[C@H]2Cc2ccccc2)cc1N |  | MT-2 | RF |  | <0.015 µM
CCOC(=O)C(O)(c1c[nH]c2cc(F)ccc12)C(F)(F)F |  | TZM-bl | IIIB |  | 0.147 µM
CC(=O)c1cccc(CN2C(=O)N(Cc3cccc(C(C)=O)c3)[C@H]3CS[C@@H](CCCCCO)[C@H]32)c1 |  | MT-2 | RF |  | <26 µM
Cc1cn([C@H]2C[C@H](N=[N+]=[N-])[C@@H](CO)O2)c(=O)[nH]c1=O |  | CEM + CEM-SS |  |  | 0.004 µM
CC(=O)Oc1ccc(/C=C/C(=O)O[C@H](C(=O)O)[C@H](OC(=O)/C=C/c2ccc(OC(C)=O)c(OC(C)=O)c2)C(=O)O)cc1OC(C)=O |  | MT-4 | IIIB |  | 3.8 µM
O=C1N(Cc2cccc(Br)c2)[C@@H]2[C@H](CCCCCO)SC[C@@H]2N1Cc1cccc(Br)c1 |  | MT-2 | RF |  | <7 µM
CC(C)=CCC/C(C)=C/CC/C(C)=C/CCC(=O)OC/C=C(\C)CCC=C(C)C |  | MT-4 | LAV |  | >100 µg/mL
CC(C)c1cc2c(c(O)c1O)[C@@]1(C(=O)O)CCCC(C)(C)C1CC2 |  | PBMC | BaL |  | 0.025 µM
CCOC(=O)C(O)(c1cn(CCC(C)C)c2ccccc12)C(F)(F)F |  | TZM-bl | IIIB |  | 4.9 µM